Results of unrelated studies side by side (data: NIAID ChemDB).

Common to all: whole-cell or culture tests; agent: HIV-1; cell line: MT-4; measure: inhibition

Rows are shuffled and stem from different studies.

structure | strain or isolate | changes | read by | conditions | tested at | value
Nc1ncnc2c1ncn2C[C@@H](CO)OCP(=O)(O)O | IIIB | - | cytopathic effect / antigen / trypan blue | - | 125 µM | 42%
Cc1c(C(C)c2c(Cl)cccc2Cl)nc(SCc2ccc(C#N)cc2)[nH]c1=O | NL4-3 | Y181C | MTT | - | 11.63 µM | 39%
COc1ccc(CN[C@@H](C(=O)N[C@H]2c3ccccc3C[C@H]2O)[C@H](O)[C@H](Cc2ccccc2)NC(=O)[C@@H](NC(=O)OCc2ccccc2)C(C)(C)C)cc1 | IIIB | - | p24 | - | 0.24 µM | 90%
C=C(C)[C@]12C[C@@H](COC(=O)c3ccccc3)[C@@]34O[C@]5(O[C@@H]1[C@@H]3[C@@H]1O[C@]1(CO)[C@@H](O)[C@@]1(O)[C@H]4[C@H]([C@H](C)[C@@H]1OC(=O)c1ccccc1)[C@H](C)CCCCCC[C@H]5O)O2 | - | - | - | - | 0.001 µM | 90%
S=C1CN(c2ccccc2)Cc2nc(Cl)ccc2N1 | BRU | - | syncytia | - | 2.5 µg/mL | 33%
O=c1[nH]cnc2c1ncn2[C@H]1CC[C@@H](CO)O1 | IIIB | - | cytopathic effect / MTT | - | 7 µM | 70%
CCC(c1cc(=O)[nH]c(SC2CCCC2)n1)c1c(F)cccc1F | IIIB | - | p24 | - | 0.19 µM | 99.9%
Cc1cn([C@H]2C[C@H](N=[N+]=[N-])[C@@H](CO)O2)c(=O)[nH]c1=O | EVK | - | p24 | - | 10 µM | 96.36%
Cc1cn(CCOCP(=O)(O)O)c(=O)[nH]c1=O | IIIB | - | cytopathic effect / trypan blue | - | 125 µM | 30%
CCc1c(Cc2c(Cl)cccc2Cl)nc(SC/C=C/c2ccc(C#N)cc2)[nH]c1=O | NL4-3 | Y181C | MTT | - | 54.82 µM | 41%
CN/C(=C\[N+](=O)[O-])NCCSCc1ccc(CN(C)C)o1 | - | - | p24 | - | 1000 µM | 80%
O=C(NCc1ccc(F)cc1)c1nc(N2CCCCS2(=O)=O)c2cccnc2c1O | IIIB | - | p24 | - | 0.1 µM | 95%
CN=C(NC#N)NCCSCc1nc[nH]c1C | IIIB | - | p24 | - | 10 µM | 100%
COc1ccc(CN[C@@H](C(=O)N[C@H](CO)c2ccccc2)[C@H](O)[C@H](Cc2ccccc2)NC(=O)OC(C)(C)C)cc1 | IIIB | - | cytopathic effect / MTT | - | 3 µM | 0%
COc1cc(O)c2c(c1)C(=O)c1c(cc3c(c1O)-c1c(cc(C)c(C(=O)N[C@H](C)C(=O)O)c1O)[C@H](O[C@@H]1O[C@H](C)[C@H](O)[C@H](O[C@@H]4OC[C@@H](OS(=O)(=O)O)[C@H](O)[C@H]4O)[C@H]1O)[C@H]3O)C2=O | IIIB | - | antigen | - | 10 µg/mL | <10%
Cc1cn([C@H]2C[C@H](N=[N+]=[N-])[C@@H](CO)O2)c(=O)[nH]c1=O | BRU | - | syncytia | - | 0.033 µg/mL | 66%
CC(C)(CO)[C@@H](O)C(=O)NCCCC(=O)O | LAV | - | - | - | 100 µg/mL | 80%
CC(C)[C@H](NC(=O)c1ccccn1)C(=O)N[C@@H](Cc1ccccc1)[C@H](O)[C@H](O)[C@H](Cc1ccccc1)NC(=O)[C@@H](NC(=O)c1ccccn1)C(C)C | P14-167(PR-G48V L10F) | PR-G48V L10F | p24 | - | 48 µM | 90%
C[C@H](CC(=O)C[C@@H](C)[C@H]1CC(=O)[C@@]2(C)C3=C(C(=O)C[C@]12C)[C@@]1(C)CC[C@H](O)C(C)(C)[C@@H]1C[C@@H]3O)C(=O)O | - | - | cytopathic effect / microscopy | - | 1000 µM | 0%
C=C(C)[C@@H]1CC[C@]2(C(=O)NCCCCCCCC(=O)N[C@@H](CC(C)C)[C@H](O)CC(=O)O)CC[C@]3(C)[C@H](CC[C@@H]4[C@@]5(C)CC[C@H](O)C(C)(C)[C@@H]5CC[C@]43C)[C@@H]12 | DH012 | - | RT activity | - | 53 µM | ~90%
CO[C@@H]1[C@@H](O)[C@@H](O)[C@H](O)[C@H](O)[C@H]1n1ccc(N)nc1=O | IIIB | - | cytopathic effect / MTT | - | 10 µg/mL | 52.4%
CC(C)[C@H](NS(=O)(=O)N(C)Cc1ccccn1)C(=O)N[C@@H](Cc1ccccc1)[C@H](O)[C@H](O)[C@H](Cc1ccccc1)NC(=O)[C@@H](NS(=O)(=O)N(C)Cc1ccccn1)C(C)C | IIIB | - | cytopathic effect | - | 100 µM | 0%
COc1ccc(CN[C@@H](C(=O)N[C@H]2c3ccccc3C[C@H]2O)[C@H](O)[C@H](Cc2ccccc2)NC(=O)OC(C)(C)C)cc1 | IIIB | - | cytopathic effect / MTT | - | 3 µM | 0%
C[C@H](NC(=O)[C@H](CCCN=C(N)N)NC(=O)c1ccc(CNCc2ccccn2)cc1)c1cccc2ccccc12 | IIIB X4 laboratory isolate | - | cytopathic effect / MTT | - | 0.0478 µM | 90%
CC1(C)[C@@H](O[C@H]2O[C@H](C(=O)O)[C@@H](O)[C@H](O)[C@H]2O[C@@H]2O[C@H](C(=O)O)[C@@H](O)[C@H](O)[C@H]2O)CC[C@]2(C)[C@H]3C(=O)C=C4[C@@H]5C[C@@](C)(C(=O)O)CC[C@]5(C)CC[C@@]4(C)[C@]3(C)CC[C@@H]12 | Clinical isolate GVK 4046 | - | ELISA | - | 500 µg/mL | 94%
CN[C@@H](CS)C(=O)O | LAV | - | - | - | 100 µg/mL | 0%
CC(C)=CCN1c2cc(Cl)cc3[nH]c(=S)n(c23)C[C@@H]1C | WT | - | - | - | 0.1 µM | 95%
O=c1[nH]cnc2c1ncn2[C@H]1CC[C@@H](CO)O1 | IIIB | - | p24 | - | 10 µM | 63%
CN1C(=O)CN(c2ccccc2)Cc2nc(Cl)ccc21 | BRU | - | syncytia | - | 5 µg/mL | 66%
COc1cc(O)c2c(=O)oc3cc(O)cc(C)c3c2c1 | NL4-3 | - | luciferase | pseudotyped | 60 µM | 80%
C[C@H](CCC=C(CO)CO)[C@H]1CC[C@@]2(C)C3=CC[C@H]4C(C)(C)C(=O)CC[C@]4(C)C3=CC[C@]12C | - | - | cytopathic effect / microscopy | - | 7.8 µM | ~100%
Nc1nc(=O)n([C@H]2CS[C@@H](CO)O2)cc1F | - | - | cytopathic effect | - | 5.2 µM | 70%
Cc1cn([C@H]2C[C@H](F)[C@@H](CO)O2)c(=O)[nH]c1=O | IIIB | - | p24 / ELISA | - | 0.021 µM | 95%
CCOc1ccc(CSc2nc(Cc3c(Cl)cccc3Cl)c(C)c(=O)[nH]2)cc1 | - | RT-Y188L | cytopathic effect / MTT | - | 11 µM | 34%
COc1c(O)c(Cl)c2c(c1OC)-c1c(c(Cl)c(O)c(OC)c1OC)C[C@H](C)[C@H](C)C2 | A17 | RT-K103N Y181C | cytopathic effect / MTT | - | 20 µM | 20%
CC(C)C(C)/C=C/[C@@H](C)[C@H]1CCC2C3=C[C@@H](O)[C@@]4(O)C[C@@H](O)CC[C@]4(C)C3CC[C@@]21C | - | - | cytopathic effect / microscopy | - | 15.6 µM | 0%
Cc1cn([C@H]2C[C@H](N=[N+]=[N-])[C@@H](CCP(=O)(O)O)O2)c(=O)[nH]c1=O | IIIB | - | cytopathic effect / propidium iodide | - | 200 µM | 0%
CCCCCCCCCC(=O)O[C@@]12[C@H](OC(C)=O)[C@@H](C)[C@@]3(O)[C@@H](C=C(CO)C[C@]4(O)C(=O)C(C)=C[C@@H]34)[C@@H]1C2(C)C | IIIB | - | cytopathic effect / MTT | - | 0.1 µg/mL | 100%
COc1cc(O)c2c(c1)C(=O)c1c(cc3c(c1O)-c1c(cc(C)c(C(=O)N[C@H](C)C(=O)O)c1O)[C@H](O[C@@H]1O[C@H](C)[C@H](O)[C@H](O[C@@H]4OC[C@@H](O)[C@H](O)[C@H]4O)[C@H]1O)[C@H]3O)C2=O | IIIB | - | antigen | - | 30 µg/mL | 99%
Cc1ccnc2c1NC(=O)c1cccnc1N2C1CC1 | A17 | RT-K103N Y181C | cytopathic effect / MTT | - | 100 µM | 25%
CC(=O)OC1C(=O)C2=C(C(=O)CC3C(C)(C)[C@@H](O)CC[C@]23C)[C@]2(C)[C@H](O)C[C@H]([C@H](C)CC(=O)CC(C)C(=O)O)[C@@]12C | - | - | cytopathic effect / microscopy | - | 1000 µM | 0%
CC(C)(C)NC(=O)[C@@H]1C[C@@H]2CCCC[C@@H]2CN1C[C@@H](O)[C@H](Cc1ccccc1)NC(=O)O[C@@H]1CO[C@@H]2OCC[C@@H]21 | IIIB | - | antigen | - | 0.2 µM | 95%
Cc1nc2cc3nc4ccccc4cc3cc2s1 | IIIB | - | trypan blue | - | 10 µg/mL | 14.3%
COC(=O)[C@@H](C)NC(=O)c1c(C)cc2c(c1O)-c1c(cc3c(c1O)C(=O)c1cc(OC)cc(O)c1C3=O)[C@H](O)[C@H]2O[C@@H]1O[C@H](C)[C@H](N)[C@H](O[C@@H]2OC[C@@H](O)[C@H](O)[C@H]2O)[C@H]1O | IIIB | - | antigen | - | 10 µg/mL | <10%
Cc1cn([C@H]2C[C@H](N=[N+]=[N-])[C@@H](CO)O2)c(=O)[nH]c1=O | IIIB-R (RT-Y181C) | RT-Y181C | cytopathic effect / MTT | - | 0.0085 µM | 90%
C1CNCCNCCCN(CCCN2CCCNCCNCCCNCC2)CCNC1 | RF | - | cytopathic effect / MTT | - | 0.87 µM | 90%
CCOC(=O)c1c(C(C)C)c(C#N)c(=N)n2ccccc12 | - | - | cytopathic effect | - | 8 µM | 100%
O=C(O)c1cn(C2CC2)c2cc(N3CCNCC3)c(F)cc2c1=O | IIIB | - | cytopathic effect / XTT | - | 50 µg/mL | 0%
CC[C@H]1[C@@H]2C[C@H]3[C@@H]4N(C)c5ccccc5[C@]45C[C@@H]([C@@H]2[C@H]5O)N3[C@@H]1O | LAV | - | - | - | 10 µg/mL | 0%
COc1ccc(C#CCSc2nc(Cc3c(Cl)cccc3Cl)c(C)c(=O)[nH]2)cc1 | NL4-3 | Y181C | MTT | - | 56.18 µM | 40%
Cc1c(C(C)c2c(F)cccc2F)nc(SC2CCCC2)[nH]c1=O | IIIB | - | p24 | - | 0.033 µM | 99.9%
CC(C)[C@H](NC(=O)N(C)Cc1ccccn1)C(=O)N[C@@H](Cc1ccccc1)[C@H](O)[C@H](O)[C@H](Cc1ccccc1)NC(=O)[C@@H](NC(=O)N(C)Cc1ccccn1)C(C)C | NL4-3 | - | p24 | - | 1 µM | 90%
CCOC(CN1CCN(CC(C)C(=O)c2ccccc2)CC1)c1ccccc1 | LAV | - | - | - | 1 µg/mL | 0%
COc1cc2c3cc1Oc1c(O)c(OC)cc4c1C(Cc1ccc(cc1)Oc1cc(ccc1O)CC3N(C)CC2)N(C)CC4 | IIIB | - | cytopathic effect / visual reading | - | 31.3 µg/mL | 100%
Cc1cn([C@H]2C[C@H](F)[C@@H](CO)O2)c(=O)[nH]c1=O | IIIB | - | cytopathic effect / trypan blue | - | 0.02 µM | 90%
CC(C)(C)OC(=O)N[C@@H](Cc1ccccc1)[C@@H](O)[C@@H](NCc1ccc(OCCN2CCOCC2)cc1)C(=O)N[C@H]1c2ccccc2C[C@H]1O | IIIB | - | cytopathic effect / MTT | - | 3 µM | 0%
CCN1CCCC(OC(=O)C(c2ccccc2)c2ccccc2)C1 | LAV | - | - | - | 100 µg/mL | 0%
CO[C@@H]1[C@@H](O)[C@@H](O)[C@H](O)[C@H](O)[C@H]1n1cnc2c(N)ncnc21 | IIIB | - | cytopathic effect / MTT | - | 10 µg/mL | 29.4%
COc1cc(O)c2c(c1)C(=O)c1c(cc3c(c1O)-c1c(cc(C)c(C(=O)N[C@H](C)C(=O)O)c1O)[C@H](O[C@@H]1O[C@H](C)[C@H](O)[C@H](O)[C@H]1O)[C@H]3O)C2=O | IIIB | - | antigen | - | 30 µg/mL | 40%
COC(=O)C(N)CC(=O)COC(=O)[C@H]1O[C@H](O[C@H]2CC[C@]3(C)[C@H]4C(=O)C=C5[C@@H]6C[C@@](C)(C(=O)O)CC[C@]6(C)CC[C@@]5(C)[C@]4(C)CC[C@H]3C2(C)C)[C@H](O[C@@H]2O[C@H](C(=O)O)[C@@H](O)[C@H](O)[C@H]2O)[C@@H](O)[C@@H]1O.S | - | - | - | - | 500 µg/mL | 97.27%
CO[C@H]1[C@@H](O)[C@H](n2ccc(N)nc2=O)[C@@H](O)[C@H](O)[C@@H]1O | IIIB | - | cytopathic effect / MTT | - | 10 µg/mL | 36.8%
NC(=O)C[C@H](NC(=O)c1ccc2ccccc2n1)C(=O)N[C@@H](Cc1ccccc1)[C@H](O)CN[C@@H](Cc1ccccc1)C(=O)N[C@H]1c2ccccc2C[C@H]1O | IIIB | - | p24 | - | 0.0125 µM | 95%
O=c1[nH]c(=O)n(COCCO)cc1Cc1ccccc1 | IIIB | - | cytopathic effect | - | 100 µM | 16%
Nc1ncnc2c1ncn2[C@@H]1C[C@](F)(CO)[C@H]1CO | IIIB | - | cytopathic effect | - | 10 µM | 80%

7 of the rows above, restated:

| structure | strain or isolate | changes | read by | conditions | tested at | value |
|---|---|---|---|---|---|---|
| O=C(O)c1cn(C2CC2)c2cc(N3CCNCC3)c(F)cc2c1=O | IIIB | - | cytopathic effect / XTT | - | 50 µg/mL | 0% |
| CN[C@@H](CS)C(=O)O | LAV | - | - | - | 100 µg/mL | 0% |
| CC(C)[C@H](NC(=O)c1ccccn1)C(=O)N[C@@H](Cc1ccccc1)[C@H](O)[C@H](O)[C@H](Cc1ccccc1)NC(=O)[C@@H](NC(=O)c1ccccn1)C(C)C | P14-167(PR-G48V L10F) | PR-G48V L10F | p24 | - | 48 µM | 90% |
| S=C1CN(c2ccccc2)Cc2nc(Cl)ccc2N1 | BRU | - | syncytia | - | 2.5 µg/mL | 33% |
| Nc1ncnc2c1ncn2C[C@@H](CO)OCP(=O)(O)O | IIIB | - | cytopathic effect / antigen / trypan blue | - | 125 µM | 42% |
| Cc1cn([C@H]2C[C@H](F)[C@@H](CO)O2)c(=O)[nH]c1=O | IIIB | - | p24 / ELISA | - | 0.021 µM | 95% |
| Cc1c(C(C)c2c(Cl)cccc2Cl)nc(SCc2ccc(C#N)cc2)[nH]c1=O | NL4-3 | Y181C | MTT | - | 11.63 µM | 39% |

Blank or dashed fields: not listed here. Inhibition is in % at the dose shown (toxicity tests: loss of growth or viability).